Data source: PubChem BioAssay AID504761 (Drosophila RNAi Screening Center, 2011)

- Screen: 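Fly genes whose silencing reduces dengue virus type 2 infection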 (primary screen)
- System: D.Mel-2 cells from Drosophila
- Reagent: long dsRNA against Drosophila genes
- Treatment: infection with dengue virus type 2; dose and infection time not stated
- Detection: 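Cells stained for dengue envelope protein and imaged; percent of infected cells per well on duplicate plates, ranked by infection, with stained nuclei counted for cell number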
- Reading the numbers: infection score: higher = more virus-infected cells; cell count: higher = more cells in the well
- Active means: 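Very low infection ranking in both replicate wells (chance probability at most 0.065), then a retest showing infection dropped 1.5-fold or more at p below 0.05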
- Calls: active = confirmed: knock-down lowers infection; inactive = not picked or not confirmed
The screen tested about 22,000 reagents; below is an unselected part of those with a known target gene and a result. In the full data, 116 (0.52%) got an active call. 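Calls depend on retest data that are not deposited; infection was ranked per plate without normalising between plates; the unit of the infection score is not given.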 The raw values are shown without normalisation. Unmarked entries are inactive. The numbers tell different reagents against one gene apart. Not all columns of the deposit are shown. Not given: the amount of reagent, the time to read-out.

For Ir93a #1 the deposit lists infection score, replicate 1 = 4.57; cell count, replicate 1 = 6506.
Silencing of Ir93a #2 resulted in: infection score, replicate 1 = 6.18; cell count, replicate 1 = 5386.
Against Ir93a #3, the values are infection score, replicate 1 = 23.4; cell count, replicate 1 = 4271.
CR32028 (retired record) #1 scored infection score, replicate 1 = 1.09; cell count, replicate 1 = 6431.
CR32028 (retired record) #2 showed infection score, replicate 1 = 2.55; cell count, replicate 1 = 6149.
CG11085 #1 showed infection score, replicate 1 = 6.87; cell count, replicate 1 = 5965.
CG11085 #2 scored infection score, replicate 1 = 1.36; cell count, replicate 1 = 5204.
CG11085 #3 gave infection score, replicate 1 = 2.33; cell count, replicate 1 = 6043.
zfh2 #1 scored infection score, replicate 1 = 1.08; cell count, replicate 1 = 6403.
zfh2 #2 showed cell count, replicate 1 = 416.
For Drat, the entry reads infection score, replicate 1 = 18.7; cell count, replicate 1 = 6594.
Silencing of Rnf146 came out at: infection score, replicate 1 = 3.72; cell count, replicate 1 = 6282.
After knock-down of CG32755 #1, the screen gave infection score, replicate 1 = 4.45; cell count, replicate 1 = 1865.
CG32755 #2 showed infection score, replicate 1 = 0.13; cell count, replicate 1 = 6857.
